Laboratory results: article PMC5268466, “Monofluorophosphate Blocks Internal Polysaccharide Synthesis in Streptococcus mutans” (PLoS ONE, 2017)

Protein sequences, listed by entry. Tags and fused reporters are not part of them. Lines headed by an entry give the natural chain unless they say otherwise; changes in a name come on top.
UniProt M9TIK1: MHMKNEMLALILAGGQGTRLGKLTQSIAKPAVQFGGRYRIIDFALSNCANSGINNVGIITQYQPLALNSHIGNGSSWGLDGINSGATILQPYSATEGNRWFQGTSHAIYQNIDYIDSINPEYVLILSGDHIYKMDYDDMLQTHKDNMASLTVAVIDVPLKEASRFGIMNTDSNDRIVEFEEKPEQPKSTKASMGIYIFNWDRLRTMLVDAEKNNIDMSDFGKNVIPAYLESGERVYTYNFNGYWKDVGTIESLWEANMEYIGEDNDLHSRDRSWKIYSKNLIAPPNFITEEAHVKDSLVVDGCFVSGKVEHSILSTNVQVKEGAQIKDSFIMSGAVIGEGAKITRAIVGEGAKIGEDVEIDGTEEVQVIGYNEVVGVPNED

Legend:
[1] = biological target: T1, S. mutans ADP-Glc PPase (GlgC/GlgD) (Streptococcus mutans, UniProt M9TIK1); experiment: ADP-[…]Glc synthesis assay, Hill fit; details: read-out: I0.5; saturating substrates; Figure 3: 1 mM Glc-1P, 2 mM ATP, 10 mM Mg2+; pH 8.0 MOPS, 37 C; activation at low concentrations before inhibition; not reverted by Fru-1,6-bisP
[2] = biological target: T1, S. mutans ADP-Glc PPase (GlgC/GlgD); experiment: ADP-[…]Glc synthesis assay, Dixon plot; details: read-out: apparent KI; non-competitive or slightly mixed versus ATP (1, 3, 5 and 10 mM); 10 mM Mg2+; pH 8.0, 37 C

Which results are given for `O=P(O)(O)F`?
IC50 [1]: 1.5 mM; Ki [2]: 5 to 7 mM
